{"source": "paper PMC5571287", "about": "(Antimicrobial Agents and Chemotherapy, 2017)", "key": {"[1]": {"system": "RSV A2", "assay": "RSV F protein cell-based ELISA in BEAS-2B cells, washout / nonwashout", "design": "species or system respiratory syncytial virus"}, "[2]": {"system": "RSV B WST", "assay": "CPE assay, RSV B Washington in HEp-2 cells (resazurin)"}, "[3]": {"system": "RSV A2", "assay": "CPE assay, RSV A2 in HEp-2 cells (resazurin)", "details": "read-out: RSV A2 IC90, HEp-2, n = 3, added with virus infection, ALS-8112 24 h prior"}, "[4]": {"system": "HEp-2 cells"}}, "note": "Read-outs that look alike come from different tables or passages of the source.", "data": [{"smiles": "O=C(NC1CC1)c1cc2c(s1)-c1ccccc1N(C(=O)c1ccc(NC(=O)c3cccnc3N3CCC4(CC3)COC4)cc1)CC2", "values": [{"measurement": "IC50", "setting": "[1]; read-out: IC50, F protein expressed on cell surfaces, 2 h exposure then 24-h washout before inoculation", "result": 106, "unit": "nM"}, {"measurement": "IC50", "setting": "[1]; read-out: IC50, F protein expressed on cell surfaces, nonwashout (sustained presence of drug)", "result": 3.17, "unit": "nM"}, {"measurement": "IC50", "setting": "[2]; read-out: RSV B WST IC50, HEp-2, n = 3, added with virus infection, ALS-8112 24 h prior", "result": "> 1580", "unit": "nM"}, {"measurement": "IC90", "setting": "[2]; read-out: RSV B WST IC90, HEp-2, n = 3, added with virus infection, ALS-8112 24 h prior", "result": "> 1580", "unit": "nM"}, {"measurement": "IC90", "setting": "[3]", "result": 60, "unit": "nM"}, {"measurement": "CC50", "setting": "[4]", "result": "> 15800", "unit": "nM"}]}]}
